Peptide text beside a SMILES is read from it. * marks the point of attachment. Myristoyl = CCCCCCCCCCCCCC(=O)*
Experiment: Coupling efficiency on NHS-activated agarose beads
Conditions: mg per ml adsorbent, 400 μL peptide solution 1 mg/mL, 2 h room temperature, PBS pH 7.4, Pierce 660 nm protein assay

Question: Which “Coupling Efficiency” value does the source give for `CCCCCCCCCCCCCC(=O)N[C@@H](Cc1ccccc1)C(=O)N[C@@H](Cc1c[nH]c2ccccc12)C(=O)N[C@@H](CCCNC(=N)N)C(=O)N[C@@H](CCCNC(=N)N)C(=O)N[C@@H](Cc1ccccc1)C(=O)N[C@@H](Cc1c[nH]c2ccccc12)C(=O)N[C@@H](CCCNC(=N)N)C(=O)N[C@@H](CCCNC(=N)N)C(N)=O` [LF11-227-C14] (Myristoyl-FWRRFWRR-NH2) here?
Answer: Its value is 0.31 ± 0.11 mg/mL.

Question: For `CCCCCCCCCCCCCC(=O)N1CCC[C@H]1C(=O)N[C@@H](Cc1ccccc1)C(=O)N[C@@H](Cc1c[nH]c2ccccc12)C(=O)N[C@@H](CCCNC(=N)N)C(=O)N[C@H](C(=O)N[C@@H](CCCNC(=N)N)C(=O)N[C@H](C(=O)N[C@@H](CCCNC(=N)N)C(=O)N[C@@H](CCCNC(=N)N)C(N)=O)[C@@H](C)CC)[C@@H](C)CC` [LF11-322-C14] (Myristoyl-PFWRIRIRR-NH2), which “Coupling Efficiency” value is on record?
Answer: The value was 0.25 ± 0.09 mg/mL.

Question: With H-FWRRFWRR-NH2 [LF11-227-NH2] as the compound, how does the “Coupling Efficiency” value read?
Answer: The value was 1.57 ± 0.27 mg/mL.

Question: Which “Coupling Efficiency” value does the source give for H-PFWRIRIRR-NH2 [LF11-322-NH2] here?
Answer: Its value is 1.67 ± 0.31 mg/mL.

Question: For Polymyxin B [PMB, reference compound], which “Coupling Efficiency” value is on record?
Answer: The value was 1.68 ± 0.23 mg/mL.

— PMC6862080 (International Journal of Molecular Sciences, 2019)
